The target in test [1] is HA of A/Vietnam/1203/04 (H5N1) virus (Influenza A virus A/Vietnam/1203/04 (H5N1)). The experiment in a line: cell-based or functional assay.
The target of test [2] is HA of A/Shanghai/1/2013 (H7N9) virus (Influenza A virus A/Shanghai/1/2013 (H7N9)). Description: cell-based or functional assay.

CT-P27: the EC50, microneutralization test in test [1] came out at 7.29 mg/L. The IC50, in vitro neutralization assay, wild type virus in test [2] was found to be 13.1 mg/L.

The record behind these values is patent US20160052997A1.
